Results of unrelated studies side by side (data: NIAID ChemDB).

All rows: host cell toxicity; cells: HeLa; measure: CC50

Conditions beyond the fields shown may differ between rows. Two numbers with a dash give a range or band. CCn is the concentration with n% toxicity to the cells.

CCOC(=O)c1ccc(OCCCCC(=O)c2ccc(C)c(C)c2)cc1 ; result: 146 µM
CCN(CC)c1cc(-c2ccc(O)cc2O)on1 ; result: 121 µM
CC(C)S(=O)(=O)c1ccc(Oc2ccc(C(=O)c3ccccc3)cc2)nc1 ; result: 5 µg/mL
O=c1[nH]c(=O)n([C@@H]2C[C@H](CO)C[C@H]2CO)cc1I ; result: >200 µg/mL
C=CCc1nc(C)n2c(=O)[nH]c(NC(C)=O)nc12 ; result: >400 µg/mL
NC1CSCON2CCc3c([nH]c4ccccc34)[C@H]12 ; result: ≥4 µg/mL
C/C(=C\CCC1(C)C=Cc2cc(O)cc(C)c2O1)CC/C=C(\C)CC[C@@H](C)C(C)(C)O ; result: 24 µM
CC[n+]1c(-c2ccccc2)c2cc(NC(N)=O)ccc2c2ccc(N)cc21 ; result: >10 µM
CCSc1ccc(Oc2ccc(C(=O)c3ccccc3)cc2)nc1C#N ; result: >10 µg/mL
NC(=O)CSc1ncnc2c1cnn2COCCO ; result: >400 µg/mL
CCOc1ncn(-c2ccc(NC(=S)Nc3cnccn3)cc2)n1 ; result: 20 µg/mL
N#Cc1cccc(-c2cccc(-c3cc(=O)n(O)c4ncccc34)c2)c1 ; result: <100 µM
CCOC(=O)c1ccc(OCCCC(=O)c2ccc(C)s2)cc1 ; result: >301 µM
CC(/C=C/C(=O)O)[C@H]1O[C@@H](CC(=O)c2ccc(N)cc2)[C@H](C)C[C@H]1C ; result: >100 µg/mL
O=C1c2c(Cl)cc(Cl)cc2OCC1Cc1ccc(Cl)cc1 ; result: <6.25 µM
COC(=O)C(Cc1ccc(OCCCCC(=O)c2ccc(C)s2)cc1)NC(C)=O ; result: 86 µM
CCCOc1ncn(-c2ccc(NC(=S)Nc3ncccn3)cc2)n1 ; result: 40 µg/mL
CC(=O)OC[C@H]1OC(OC(=O)NS(=O)(=O)OC[C@H]2O[C@@H](n3ccc(=O)[nH]c3=O)[C@@H]3OC(C)(C)O[C@@H]32)[C@H](OC(C)=O)[C@@H](OC(C)=O)[C@@H]1OC(C)=O ; result: 360 µM
Nc1nccc2c1ncn2[C@@H]1C[C@H](CO)[C@@H](O)[C@H]1O ; result: >400 µg/mL
COc1ccc(-c2cc(N3CCCC3)no2)c(O)c1 ; result: >384 µM
O=c1c(Cc2ccc(Cl)cc2)coc2ccccc12 ; result: 50 µM
O=C(NS(=O)(=O)OC[C@H]1O[C@@H](n2ccc(=O)[nH]c2=O)[C@H](O)[C@@H]1O)O[C@H]1O[C@H](COC(=O)c2ccccc2)[C@@H](OC(=O)c2ccccc2)[C@H](OC(=O)c2ccccc2)[C@H]1OC(=O)c1ccccc1 ; result: 230 µM
COc1ccc(OCc2ccc(COc3c(Cl)cccc3Cl)cc2)c(Cl)c1 ; result: >50 µg/mL
O=C(Oc1c(-c2ccc(Cl)c(Cl)c2)oc2ccccc2c1=O)c1cc(O)c(O)c(O)c1 ; result: 6.32 µM
Cc1nc(Cc2ccccc2)c2[nH]c(=S)[nH]c(=O)n12 ; result: 200 µg/mL
Cc1ccc(C(=O)CCCCCCOc2ccc(C3=NCCO3)cc2Cl)s1 ; result: >246 µM
CCOC(=O)CCCN1C(=O)c2ccccc2C(C(=O)c2ccccc2)C1=O ; result: >265 µM
O=c1[nH]c(=O)n(C2C[C@H](CO)[C@@H](CO)C2)cc1I ; result: >200 µg/mL
Cc1ccc(C(=O)CCCCOc2ccc(C3=N[C@@H](C)CO3)cc2)s1 ; result: 13 µM
Nc1nc2c(ncn2[C@@H]2O[C@H](CO)[C@@H](F)[C@H]2O)c(=O)[nH]1 ; result: >400 µg/mL
N#Cc1ccc(OCCCCC(=O)c2ccc(F)cc2)cc1 ; result: 35 µM
CS(=O)(=O)c1ccc(Oc2ccc(C(=O)c3ccccc3)cc2)nc1 ; result: >10 µg/mL
Cc1ccsc1C(=O)CCCCOc1ccc(C2=NCCO2)cc1 ; result: 291 µM
CSc1noc(-c2ccc(OCCCc3ccccc3)cc2)c1C#N ; result: >25 µM
COc1ccnc2[nH]cc(C(=O)C(=O)N3CCN(C(=O)c4ccccc4)C[C@H]3C)c12 ; result: 226 µM
CCOC(=O)c1c(O)c2cc(Br)cnc2n(O)c1=O ; result: <100 µM
COc1cc(C(=O)Oc2c(-c3ccc(Cl)c(Cl)c3)oc3ccccc3c2=O)cc(OC)c1OC(C)=O ; result: 1.29 µM
O=C1c2ccccc2OCC1Cc1ccc(Cl)cc1 ; result: 6.25 µM
Cc1cn([C@H]2C[C@H](O[Si](C)(C)C(C)(C)C)[C@@H](/C=C/C#N)O2)c(=O)[nH]c1=O ; result: 50–100 µM
Cc1nc(CC(O)CO)c2nc[nH]c(=O)n12 ; result: >400 µg/mL
COc1cc(C(=O)Oc2c(-c3ccc(Cl)cc3)oc3ccccc3c2=O)cc(OC)c1O ; result: 0.54 µM
Cc1cc(CCCOc2c(C)cc(-c3noc(C(F)(F)F)n3)cc2C)on1 ; result: 77 µM
CC(=O)Nc1nc2c(CC(O)CO)ncn2c(=O)[nH]1 ; result: 200 µg/mL
CC(C)CS[C@@H]1C=C[C@H](n2cnc3c(N)ncnc32)C1 ; result: 16–80 µg/mL
O=c1c(Cc2ccc(O)cc2)coc2ccccc12 ; result: 50 µM
O=c1[nH]cnc2c1ncn2C1C[C@H](CO)[C@@H](CO)C1 ; result: >200 µg/mL
CCCOc1ncn(-c2ccc(NC(=S)NC34CC5CC(CC(C5)C3)C4)cc2)n1 ; result: 20 µg/mL
O=c1c(-c2ccccc2)c(O)c2cc(-c3cccs3)cnc2n1O ; result: <100 µM
CSc1noc(-c2ccc(OCCOc3ccc(Br)cc3)cc2)c1C#N ; result: 10 µM
C=C(C=O)[C@@H]1CC[C@@]2(C)C1C1CCC3[C@@]4(C)CC[C@H](O)C(C)(C)C4CC[C@@]3(C)[C@]1(C)C[C@@H]2O ; result: >10 µM
Cc1ccc(C(=O)CCCCCCOc2ccc(C3=N[C@@H](C)CO3)cc2)s1 ; result: 16 µM
CCC(Sc1ncnc2c1cnn2COCCO)C(N)=O ; result: >400 µg/mL
COc1ccc(/C=C2\COc3ccccc3C2=O)cc1 ; result: 6.25 µM
O=C1O/C(=C\Cn2cnc3c(Cl)ncnc32)C(OCc2ccc([N+](=O)[O-])cc2)=C1OCc1ccc([N+](=O)[O-])cc1 ; result: 16.97 µM
C#CCOc1cc(OC)ccc1-c1cc(N(CC)CC)no1 ; result: 40 µM
CCOC(=O)CCCN1C(=O)Cc2ccccc2C1=O ; result: >360 µM
COc1ccc(/C=C2\COc3cc(OC)cc(OC)c3C2=O)cc1 ; result: 1.56 µM
O=C(Oc1c(-c2ccc(Cl)c(Cl)c2)oc2ccccc2c1=O)c1cc(OCc2ccccc2)c(OCc2ccccc2)c(OCc2ccccc2)c1 ; result: 1.56 µM
CSCCCN1C(=O)Cc2ccccc2C1=O ; result: >400 µM
COC1=C(OCc2ccc([N+](=O)[O-])cc2)/C(=C/Cn2cnc3c(Cl)ncnc32)OC1=O ; result: 19.32 µM
CCOC(=O)/C=C/[C@H](CCC(N)=O)NC(=O)[C@H](Cc1ccccc1)NC(=O)[C@@H](NC(=O)OCc1ccccc1)C(C)C ; result: >100 µM
Cc1cc(CCCCCCCOc2ccc(C3=NCCO3)cc2)on1 ; result: 36 µM
COc1cc(C(=O)Oc2c(-c3ccc(Cl)c(Cl)c3)oc3ccccc3c2=O)cc(OC)c1O ; result: 3.32 µM
CCOC(=O)c1ccc(OCCCCC(=O)c2cc(C)n(C)c2C)cc1 ; result: 56 µM
CCOC(=O)c1c(NCc2ccccc2)c2cccnc2n(O)c1=O ; result: <100 µM
CCOC(=O)/C=C/[C@H](CCC(N)=O)NC(=O)[C@H](Cc1ccccc1)NC(=O)[C@@H](NC(=O)OCc1ccccc1)C(C)CC ; result: 178 µM
O=C(Nc1ccccc1)c1c(O)c2cccnc2n(O)c1=O ; result: <100 µM
Cc1ccc(C(=O)CCCCCCOc2ccc(C3=NCCO3)cc2)s1 ; result: >269 µM
CC(Sc1ncnc2c1cnn2COCCO)C(N)=O ; result: >400 µg/mL
O=c1cc(N2CCC[C@@H]2CF)c2cccnc2n1O ; result: <100 µM
CSc1noc(-c2ccc(OCCOc3ccccc3)cc2)c1C#N ; result: >25 µM
CCOc1ncn(-c2ccc(NC(=S)NC34CC5CC(CC(C5)C3)C4)cc2)n1 ; result: 200 µg/mL
CCOC(=O)/C=C/[C@H](CCC(N)=O)NC(=O)[C@H](Cc1ccccc1)NC(=O)[C@H](CC(C)C)NC(=O)SC1CCCC1 ; result: >320 µM
COc1cc(C(=O)Oc2c(-c3ccc(Cl)cc3)oc3ccccc3c2=O)ccc1OC(C)=O ; result: 14.22 µM
CCOC(=O)c1ccc(OCCCCC(=O)c2ccc(Cl)c(Cl)c2)cc1 ; result: 194 µM
CS(=O)(=O)c1cccnc1Oc1ccc(C(=O)c2ccccc2)cc1 ; result: >10 µg/mL
Cc1ccc(C(=O)CCCCOc2ccc(C3=NCC(C)O3)cc2)s1 ; result: 210 µM
COc1ccc(CNC(=O)c2c(O)cc(OCC=C(C)C)cc2OC)cc1 ; result: 29 µg/mL
c1ccn(CCCCCOc2ccc(C3=NCCO3)cc2)c1 ; result: 159 µM
CC(/C=C/C(=O)O)C(O)C(C)CC(C)C(O)CC(=O)c1ccc(N)cc1 ; result: >100 µg/mL
COc1cc(C(=O)Oc2c(-c3ccc(Cl)c(Cl)c3)oc3ccccc3c2=O)ccc1OC(C)=O ; result: 1.07 µM
CCOc1ncn(-c2ccc(NC(=S)NC3O[C@H](CO)[C@@H](O)[C@H](O)[C@H]3O)cc2)n1 ; result: 100 µg/mL
CC1COc2c(N3CCN(C)CC3)c(F)cc3c(=O)c(C(=O)O)cn1c23 ; result: 375 µg/mL
CCOC(=O)c1cc(C#N)c2[nH]c3ccccc3n2c1=O ; result: 175 µg/mL
CN(C)c1cc(-c2ccc(O)cc2O)on1 ; result: 227 µM
CCOc1cc(O)c(C(=O)/C=C/c2ccc(OC)cc2)c(OC)c1 ; result: 18 µg/mL
COCCNC(=O)c1cc2c(s1)-c1ccccc1N(C(=O)c1ccc(NC(=O)c3ccccc3-c3ccccc3)cc1)CC2 ; result: >100 µM
[N-]=[N+]=N[C@H]1[C@@H](F)[C@H](N2C=CC(N)NC2=O)O[C@@H]1CO ; result: >400 µg/mL
CS(=O)(=O)c1cccc(Oc2ccc(C(=O)c3ccccc3)cc2)n1 ; result: >10 µg/mL
CCOC(=O)/C=C/[C@H](CCC(N)=O)NC(=O)[C@H](Cc1ccccc1)NC(=O)[C@@H](NC(=O)OCc1ccccc1)C(C)(C)C ; result: >100 µM
COc1cc2c(cc1OC)[C@@H]1C(N)CSCON1CC2 ; result: 34 µg/mL
Cc1cc(CCCCCCCOc2ccc(C3=NCCO3)cc2)on1 ; result: 4–8 µg/mL
CCOC(=O)c1cc(Cl)c(OCCCCC(=O)c2ccc(Cl)cc2)c(Cl)c1 ; result: 103 µM
Cc1ccc(C(=O)CCCCOc2ccc(C(=O)O)cc2)s1 ; result: >314 µM

For reference, 6 entries again:

C=C(C=O)[C@@H]1CC[C@@]2(C)C1C1CCC3[C@@]4(C)CC[C@H](O)C(C)(C)C4CC[C@@]3(C)[C@]1(C)C[C@@H]2O ; result: >10 µM
Cc1ccc(C(=O)CCCCCCOc2ccc(C3=N[C@@H](C)CO3)cc2)s1 ; result: 16 µM
O=c1[nH]cnc2c1ncn2C1C[C@H](CO)[C@@H](CO)C1 ; result: >200 µg/mL
CN(C)c1cc(-c2ccc(O)cc2O)on1 ; result: 227 µM
COCCNC(=O)c1cc2c(s1)-c1ccccc1N(C(=O)c1ccc(NC(=O)c3ccccc3-c3ccccc3)cc1)CC2 ; result: >100 µM
CSc1noc(-c2ccc(OCCOc3ccc(Br)cc3)cc2)c1C#N ; result: 10 µM